# Experimental data: publication PMC8678048 (Frontiers in Microbiology, 2021)
# Chains of the proteins cited; added tags and fusions are not shown. Lines headed by an entry give the natural chain unless they say otherwise; changes in a name come on top.
# UniProt Q00946: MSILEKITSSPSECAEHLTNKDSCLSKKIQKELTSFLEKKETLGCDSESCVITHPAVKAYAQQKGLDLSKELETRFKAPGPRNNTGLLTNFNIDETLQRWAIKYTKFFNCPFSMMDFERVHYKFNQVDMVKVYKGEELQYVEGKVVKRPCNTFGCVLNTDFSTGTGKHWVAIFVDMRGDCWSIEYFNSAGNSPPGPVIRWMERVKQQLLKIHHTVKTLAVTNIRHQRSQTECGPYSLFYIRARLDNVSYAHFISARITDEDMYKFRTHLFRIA
# Molecular target: ASFV pS273R protease (African swine fever virus, UniProt Q00946)
# Assay: pS273R protease inhibition assay (Lineweaver–Burk, Dixon)
# Format: biochemical
# Conditions: read-out: Ki value; substrate Bz-Nle-Gly-Gly-Arg-AMC; fluorescence ex 360nm, em 460nm; method of Dixon; mean±SEM; three independent experiments
structure (smiles),measurement,value
CC[C@H](C)[C@@H]1NC(=O)CNC(=O)[C@H](CO)NC(=O)[C@@H]2CSSC[C@@H](C(=O)N[C@@H](Cc3ccc(O)cc3)C(=O)O)NC(=O)[C@H](CCCCN)NC(=O)[C@@H]3CSSC[C@H](NC(=O)[C@H](CCC(N)=O)NC(=O)[C@H](Cc4ccc(O)cc4)NC(=O)[C@H](CCC(N)=O)NC(=O)[C@H](CC(N)=O)NC(=O)[C@H](Cc4ccccc4)NC(=O)[C@@H]4CCCN4C(=O)[C@@H](NC(=O)CNC(=O)[C@H](Cc4ccc(O)cc4)NC(=O)CN)CSSC[C@H](NC(=O)[C@H](Cc4ccc(O)cc4)NC(=O)CNC(=O)CNC(=O)[C@H](CCCCN)NC(=O)[C@H](Cc4ccc(O)cc4)NC(=O)CNC(=O)[C@H](CCCNC(=N)N)NC1=O)C(=O)N[C@@H](CCCCN)C(=O)NCC(=O)N[C@@H]([C@@H](C)O)C(=O)N[C@@H](Cc1ccccc1)C(=O)N[C@@H](CCCCN)C(=O)N[C@@H](CCC(N)=O)C(=O)N[C@@H]([C@@H](C)O)C(=O)N3)C(=O)N[C@@H](Cc1c[nH]cn1)C(=O)N[C@@H](CO)C(=O)N[C@@H](Cc1c[nH]cn1)C(=O)N2 [OPTX-1],Ki,821 nM
